The list shows a part of the results, in another mix than the full data. The source made the active and inactive calls. No stated cut-off is given here; in the data, active means inhibition above about 27% (passing the limit was not always enough); inactive means the rest.
system: HCMV UL50-UL53 nuclear egress complex (human cytomegalovirus); test: inhibitors of HCMV UL50-UL53 interaction, biochemical, HTRF (AID 1918969); details: normalized percent inhibition, hits give high values, concentration not given here

Structure (SMILES) | inhibition
CCOC(=O)N1CCC(Nc2cccc(C)c2)CC1 | inactive: -15.5%
O=C(NCC1(N2CCOCC2)CCCCC1)c1ccc2nc[nH]c2c1 | inactive: -14.3%
O=C1CCN(Cc2ccccc2)CC1 | inactive: 6.2%
O=C(NCC1(N2CCOCC2)CCCCC1)c1ccc(Cl)cc1 | inactive: 11.9%
COc1ccccc1C(=O)NCC1(N2CCOCC2)CCCCC1 | inactive: -15.6%
Cc1cc(C)c2c(C)c(C(=O)NCC3(N4CCOCC4)CCCCC3)oc2c1 | inactive: 1.3%
CCOC(=O)N1CCC(Nc2ccc(F)cc2)CC1 | inactive: -8.9%
Cc1c(C(=O)NCC2(N3CCOCC3)CCCCC2)oc2cc(Br)ccc12 | inactive: -1.5%
CC1CN(CCc2ccccc2)CCC1=O (centres undefined) | inactive: -15.4%
N#CC1(Nc2ccccc2)CCN(Cc2ccccc2)CC1 | inactive: -10.9%
CCCN1CCC(Nc2ccc(OC)c(OC)c2)CC1 | inactive: -21.4%
Cc1ccccc1NC1CC(C)(C)NC(C)(C)C1 | inactive: -4.4%
COc1ccc(C(=O)NCC2(N3CCCCC3)CCCCC2)cc1 | inactive: -15.2%
Cc1c(C(=O)NCC2(N3CCOCC3)CCCCC2)oc2ccc(Cl)cc12 | inactive: 3.3%
Cc1c(C(=O)NCC2(N3CCOCC3)CCCCC2)oc2ccc(Br)cc12 | inactive: 12.1%
Cc1c(C(=O)NCC2(N(C)C)CCCCC2)oc2ccc(Br)cc12 | inactive: -9.1%
NC(=O)C1(Nc2ccc(F)cc2)CCNCC1 | inactive: -26%
c1ccc(CN2CCC(Nc3ccc4c(c3)OCO4)CC2)cc1 | inactive: -19.5%
O=C(NCC1(N2CCOCC2)CCCCC1)c1ccccc1Br | inactive: -3.1%
Cc1ccc(C(=O)NCC2(N(C)C)CCCCC2)o1 | inactive: -27.3%
CCCCOc1ccccc1C(=O)NCC1(N2CCOCC2)CCCCC1 | inactive: -6.8%
Cc1ccc2c(C)c(C(=O)NCC3(N(C)C)CCCCC3)oc2c1C | inactive: -4.8%
CCCOc1cccc(C(=O)NCC2(N3CCOCC3)CCCCC2)c1 | inactive: 0.2%
Cn1nc(C(=O)NCC2(N3CCCCC3)CCCCC2)c2ccccc2c1=O | inactive: -24.4%
CCOc1ccc(C(=O)NCC2(N3CCOCC3)CCCCC2)cc1 | inactive: -10.4%

Structure (SMILES) | inhibition
O=C(NCC1(N2CCOCC2)CCCCC1)c1ccccc1 | inactive: -17.1%
CCCN1CCC(Nc2cc(OC)cc(OC)c2)CC1 | inactive: -3.2%
Cc1c(C(=O)NCC2(N3CCOCC3)CCCCC2)oc2c(Cl)cccc12 | inactive: -32.3%
O=C(NCC1(N2CCOCC2)CCCCC1)c1ccccc1[N+](=O)[O-] | inactive: -25.1%
O=C(NCC1(N2CCOCC2)CCCCC1)c1ccc([N+](=O)[O-])cc1 | inactive: -89.9%
Cc1c(C(=O)NCC2(N3CCOCC3)CCCCC2)oc2ccc(F)cc12 | inactive: 8.3%
O=C(NCC1(N2CCOCC2)CCCCC1)c1cc2ccccc2cc1O | inactive: -33.5%
Cc1c(C(=O)NCC2(N(C)C)CCCCC2)oc2cc(Br)ccc12 | inactive: -13.3%
O=C1CCN(CCc2ccccc2)CC1 | inactive: -29.4%
CN1CCC(Nc2ccc(F)cc2)CC1 | inactive: -7.6%
COc1cc(C(=O)NCC2(N3CCOCC3)CCCCC2)cc(OC)c1OC | inactive: -6.9%
O=C(NCC1(N2CCCCC2)CCCCC1)c1n[nH]c2ccccc12 | inactive: -17.1%
CCOc1ncccc1C(=O)NCC1(N2CCCCC2)CCCCC1 | inactive: -2%
CC(C)(C)OC(=O)N1CCC(Nc2ccccc2)CC1 | inactive: -10.3%
CCOc1ncccc1C(=O)NCC1(N(C)C)CCCCC1 | inactive: -8.5%
Cc1c(C(=O)NCC2(N(C)C)CCCCC2)oc2ccc(Cl)cc12 | inactive: -15%
CCN1CCC(Nc2ccc(F)cc2)CC1 | inactive: 2%
CC1CN(C)C(C)CC1Nc1ccccc1 (centres undefined) | inactive: -24.2%
Cc1ccccc1C(=O)NCC1(N(C)C)CCCCC1 | inactive: -34.8%
CC1CN(CCc2ccccc2)C(C)CC1=O (centres undefined) | inactive: 2.7%
CN(C)c1ccc(C(=O)NCC2(N3CCCCC3)CCCCC2)cc1 | inactive: -0.5%
CC(C)(C)c1ccc(C(=O)NCC2(N3CCOCC3)CCCCC2)cc1 | inactive: -21.2%
CN(C)C1(CNC(=O)c2ccc(C(C)(C)C)cc2)CCCCC1 | inactive: -27.4%
CC1CN(Cc2ccccc2)CCC1=O (centres undefined) | inactive: 8.1%

From PubChem BioAssay AID1918969 (ICCB-Longwood Screening Facility, Harvard Medical School, 2023)
